Anti-infective test results gathered from many reports (values: NIAID ChemDB through PubChem).

Common to all: whole-cell or culture tests; organism: HIV-1; method: cytopathic effect / XTT; endpoint: EC50

Blank or dashed fields: not listed here. ECn: concentration that inhibits the pathogen or its effect by n%. Lines come from different laboratories, so protocols vary.

smiles | setting | strain | mutations | cells | result
O=c1[nH]cc(N=Nc2ccc(S(=O)(=O)Nc3nccs3)cc2)cc1O | - | RF | - | CEM + CEM-SS | 192 µM
Cc1cn([C@H]2C[C@H](N=[N+]=[N-])[C@@H](CO)O2)c(=O)[nH]c1=O | - | 22(RT-L100I Y188H) | RT-L100I Y188H | MT-4 | 0.004 µM
Cc1cn([C@H]2C[C@H](N=[N+]=[N-])[C@@H](CO)O2)c(=O)[nH]c1=O | - | LAI | - | MT-2 | 0.5 µM
CCOCn1c([Se]c2cc(C)cc(C)c2)c(CC)c(=O)[nH]c1=S | - | RF | - | CEM + CEM-SS | 0.012 µM
Cc1cc(C)c(C(=O)O)c(SSc2cc(C)cc(C)c2C(=O)O)c1 | - | RF | - | CEM + CEM-SS | 46.9 µM
Cc1cn([C@H]2C[C@H](N=[N+]=[N-])[C@@H](CO)O2)c(=O)[nH]c1=O | - | 205 | - | CEM + CEM-SS | 0.0017 µM
Cc1cn([C@H]2C[C@H](N=[N+]=[N-])[C@@H](CO)O2)c(=O)[nH]c1=O | - | ROJO | - | PBMC | 0.004 µM
CCOCn1c([Se]c2ccccc2)c(C(C)C)c(=O)[nH]c1=O | - | RF | - | CEM + CEM-SS | 0.013 µM
NC(N)=NS(=O)(=O)c1ccc(Nc2c3ccccc3nc3c(C(=O)NC(CO)(CO)CO)cccc23)cc1 | - | RF | - | CEM | >3.3 µM
Fc1cccc(F)c1C1SCc2nc3ccccc3n21 | - | RF | - | MT-2 | 1.32 µM
CN1C(=O)N=S(=O)(c2ccccc2)c2ccccc21 | - | IIIB | - | CEM + CEM-SS | >160 µM
CCCc1cc(=O)oc2c3c(c4c(c12)OC(C)(C)C=C4)O[C@@H](C)[C@H](C)[C@@H]3O | - | Pyridinone-resistant (RT K103N Y181C) | RT-K103N Y181C | CEM + CEM-SS | 0.8 µM
NC(=O)C(c1ccccc1)(c1ccccc1)C1CCCN(CCOCc2ccccc2)C1 | - | NL4-3 | - | MT-2 | 5.6 µM
C[C@H]1/C=C/[C@@]2(C)CC[C@@H](C(C)(C)O)[C@@H]2[C@@H](O)C[C@](C)(O)/C=C/C1 | - | 95BRSP007 R5X4 | - | U87 (CD4+ CCR5+ CXCR4+) + U87 | ~9 µM
NS(=O)(=O)c1ccc(Nc2c3ccccc3nc3c(C(=O)NC(CO)(CO)CO)cccc23)cc1 | - | RF | - | CEM | >3.4 µM
Nc1nc(N)c2ncn([C@H]3CC[C@@H](CO)C3)c2n1 | - | - | - | MT-2 | 16.7 µg/mL
Fc1cccc(F)c1[C@H]1SCc2nc3ccccc3n21 | - | IIIB | RT-L100I | CEM | 3.12 µM
N#Cc1c(Br)n(COCCO)c2ncnc(N)c12 | - | - | - | MT-2 + MT2 | >100 µM
NS(=O)(=O)c1ccc(SSc2ccc(S(N)(=O)=O)cc2[N+](=O)[O-])c([N+](=O)[O-])c1 | - | RF | - | CEM + CEM-SS | 34.6 µM
Cc1cn([C@H]2C[C@H](N=[N+]=[N-])[C@@H](CO)O2)c(=O)[nH]c1=O | clinical isolate | WEJO | - | PBMC | 0.02 µM
O=S(=O)(O)c1cc(O)c(N=NC2S(=O)(=O)OCCOS2(=O)=O)c2ccccc12 | - | RF | - | CEM + CEM-SS | >78 µM
CC[C@H](C)[C@H](NC(=O)c1ccccc1SSc1ccccc1C(=O)N[C@H](C(=O)O)[C@@H](C)CC)C(=O)O | - | RF | - | CEM + CEM-SS | 6.5 µM
Cc1cn([C@H]2C=C[C@@H](CO)O2)c(=O)[nH]c1=O | - | - | - | MT-4 | 0.3 µM
Cc1ccnc(NS(=O)(=O)c2ccc(N=Nc3cc4ccccc4c(C(=O)O)c3O)cc2)n1 | - | RF | - | CEM + CEM-SS | >10 µM
Cc1c(Sc2ccccc2)n(COCCO)c(=O)[nH]c1=O | - | IIIB | RT-L100I | CEM + CEM-SS | 204 µM
O=c1[nH]cc(N=Nc2ccc(S(=O)(=O)Nc3ccccn3)cc2)cc1O | - | RF | - | CEM + CEM-SS | >86 µM
Nc1ccn([C@H]2CC[C@@H](CO)O2)c(=O)n1 | - | - | - | CEM | 0.11 µg/mL
CNC(=O)[C@@H](NC(=O)[C@H](OCc1ccc(-c2ccccn2)cc1)[C@H](O)[C@@H](O)[C@@H](OCc1ccc(-c2ccccn2)cc1)C(=O)N[C@H](C(=O)NC)C(C)C)C(C)C | - | - | - | MT-4 | 0.4 µM
CCc1cc(NCc2nc3c(Cl)ccc(Cl)c3o2)c(=O)[nH]c1C | - | IIIB | - | MT-4 | 0.065 µM
CCOCn1c([Se]c2cc(F)cc(F)c2)c(C(C)C)c(=O)[nH]c1=S | - | RF | - | CEM + CEM-SS | 0.071 µM
CNC(=O)[C@@H](NC(=O)[C@@H](C[C@@H](O)[C@@H](OCc1ccccc1)C(=O)N[C@H](C(=O)NC)C(C)C)OCc1ccccc1)C(C)C | - | - | - | MT-4 | 0.5 µM
Nc1nc(=O)n([C@@H]2CS[C@H](CO)O2)cc1F | - | LAI | - | MT-2 | 0.6 µM
Nc1cc(C(=O)O)ccc1SSc1ccc(C(=O)O)cc1N | - | RF | - | CEM + CEM-SS | 68.1 µM
Cc1cn([C@H]2C[C@H](N=[N+]=[N-])[C@@H](CO)O2)c(=O)[nH]c1=O | - | IIIB | - | CEM + CEM-SS | 0.0025 µM
S=C(NCCc1ccccn1)Nc1ccc(Br)cn1 | - | T3-16(RT-Y181C) | RT-Y181C | MT-4 | 0.7 µM
Cc1occc1C(=S)Nc1ccc(Cl)c(/C=N/OC(C)(C)C)c1 | - | Dihydrocostatolide-resistant (RT-L100I) | RT-L100I | CEM + CEM-SS | 1 µM
CN(C)C1C(=O)C(C(=O)NCNCCCO)=C(O)C2(O)C(=O)C3=C(O)c4c(O)cccc4C(C)(O)C3CC12 | - | RF | - | CEM | 120 µM
CNC(=O)[C@@H](NC(=O)[C@H](OCc1ccc(F)cc1)[C@H](O)[C@@H](O)[C@@H](OCc1ccc(F)cc1)C(=O)N[C@H](C(=O)NC)C(C)C)C(C)C | - | - | - | MT-4 | 5 µM
CN(C)[C@@H]1C(=O)C(C(=O)NCN2CCCC2)=C(O)[C@@]2(O)C(=O)C3=C(O)c4c(O)cccc4[C@@](C)(O)[C@H]3C[C@@H]12 | - | RF | - | CEM | 45.5 µM
Cn1cc(N)cc1C(=O)Nc1cc(C(=O)Nc2ccc3cc(S(=O)(=O)O)cc(S(=O)(=O)O)c3c2)n(C)c1 | - | A17 | - | CEM + CEM-SS | 6.7 µM
Fc1cccc(F)c1C1SCc2nc3ccccc3n21 | - | IIIB | RT-K103N | CEM | 15.6 µM
Cc1ccnc2c1NC(=O)c1cccnc1N2C1CC1 | - | IIIB | - | MT-4 | 0.13 µM
Nc1ccn([C@H]2CC[C@@H](CO)O2)c(=O)n1 | - | RF | - | CEM + CEM-SS | 0.018 µM
Nc1nc2c(ncn2[C@H]2CO[C@@H](CO)O2)c(=O)[nH]1 | - | Site-directed mutant | RT-K65R | MT-2 | 12.3 µM
CCc1c(Sc2ccccn2)n(COCc2ccccc2)c(=O)[nH]c1=O | - | NL4-3 | RT-L100I | CEM + CEM-SS | 0.027 µM
CCN(CC)CC.COC(=O)CNP(=O)(O)OC[C@H]1O[C@@H](n2cc(C)c(=O)[nH]c2=O)C[C@@H]1F | - | - | - | MT-4 | 7 µM
CC(C)=CCN1Cc2cc(Cl)cc3[nH]c(=S)n(c23)C[C@@H]1C | - | T3-16(RT-Y181C) | RT-Y181C | MT-4 | 2.8 µM
CCCCCC(=O)c1c(O)cc2c(c1O)C(=O)c1c(O)cc(O)cc1C2=O | - | RF | - | CEM + CEM-SS | >65 µM
O=C(O)c1ccccc1SSc1ccccc1C(=O)O | - | RF | - | CEM + CEM-SS | 117.7 µM
N#Cc1c(N)n([C@@H]2O[C@H](CO)[C@@H](O)[C@H]2O)c2ncnc(N)c12 | - | - | - | MT-2 + MT2 | >100 µM
CNC(=O)[C@@H](NC(=O)[C@H](OCc1ccccc1)[C@H](O)[C@@H](O)[C@@H](OCc1ccccc1)C(=O)N[C@H]1c2ccccc2C[C@H]1O)C(C)C | - | - | - | MT-4 | 0.2 µM
O=S1(c2ccccc2)=NC(=S)Nc2ccccc21 | - | 205 | - | CEM + CEM-SS | 1.75 µM
CCc1c([Se]c2cccc(C)c2)n(COCCO)c(=S)[nH]c1=O | - | RF | - | CEM + CEM-SS | 0.11 µM
CC1(C)CC(=O)C2=C(C1)NC(SSC1=C(C#N)C(c3ccc(Br)cc3)C3=C(CC(C)(C)CC3=O)N1)=C(C#N)C2c1ccc(Br)cc1 | - | RF | - | CEM + CEM-SS | 21.6 µM
NC(=O)C(c1ccccc1)(c1ccccc1)[C@H]1CCCN(CCc2ccc3c(c2)CCO3)C1 | - | NL4-3 | - | CEM + CEM-SS | 1.1 µM
Cc1ccnc2c1NC(=O)c1cccnc1N2C1CC1 | - | NL4-3 | RT-Y188C | CEM + CEM-SS | 3.2 µM
CN(C)C(=O)C(c1ccccc1)(c1ccccc1)[C@H]1CCCN(CCc2ccc3c(c2)CCO3)C1 | - | NL4-3 | - | MT-2 | 3.8 µM
CCn1cc(C(=O)O)c(=O)c2cc(F)c(N3CCN(CC(=O)OC[C@H]4O[C@@H](n5cc(C)c(=O)[nH]c5=O)C[C@@H]4N=[N+]=[N-])CC3)cc21 | - | - | - | CEM | 0.523 µM
NC(=O)c1c(N)n(COC(CO)CO)c2ncnc(N)c12 | - | - | - | MT-2 + MT2 | >340 µM
O=C(NCc1c(F)cccc1Cl)C(OCc1ccccc1F)C(O)C(O)[C@@H](OCc1ccccc1F)C(=O)N[C@H]1c2ccccc2CC1O | - | - | - | MT-4 | 0.8 µM
Nc1ccc(S(N)(=O)=O)cc1SSc1cc(S(N)(=O)=O)ccc1N | - | RF | - | CEM + CEM-SS | 14.1 µM
Nc1nc(NC2CC2)c2ncn([C@H]3C=C[C@@H](CO)C3)c2n1 | - | Site-directed mutant | RT-L74V K103N | MT-2 | 7.75 µM
CC(C)C(NC(=O)[C@H](OCc1ccccc1)[C@H](O)[C@@H](O)[C@@H](OCc1ccccc1)C(=O)N[C@H](C(=O)NC1CC1)C(C)C)C(=O)NC1CC1 | - | - | - | MT-4 | 6 µM
NC(=O)c1c(Br)n(COCCO)c2ncnc(N)c12 | - | - | - | MT-2 + MT2 | >300 µM
Fc1cccc(F)c1[C@@H]1SCc2nc3ccccc3n21 | - | IIIB | RT-D138K | CEM | 11.44 µM
O=c1[nH]cnc2c1ncn2[C@H]1CC[C@@H](CO)O1 | - | - | - | MT-4 | 4 µM
O=C(C[C@@H](O)CCc1ccc(O)c(O)c1)O[C@H]1Cc2c(O)cc(O)cc2O[C@@H]1c1ccc(O)c(O)c1 | - | RF | - | CEM | 21.1 µM
CNC(=O)CSP(=O)(NCC(=O)OC)OC[C@@H]1CC[C@H](n2cc(C)c(=O)[nH]c2=O)O1 | - | - | - | MT-4 | 2 µM
Cc1cn([C@H]2C[C@H](N=[N+]=[N-])[C@@H](CO)O2)c(=O)[nH]c1=O | - | N119 | - | CEM + CEM-SS | 4.4 µM

For reference, 8 entries again:

smiles | setting | strain | mutations | cells | result
NS(=O)(=O)c1ccc(Nc2c3ccccc3nc3c(C(=O)NC(CO)(CO)CO)cccc23)cc1 | - | RF | - | CEM | >3.4 µM
Fc1cccc(F)c1[C@H]1SCc2nc3ccccc3n21 | - | IIIB | RT-L100I | CEM | 3.12 µM
Cn1cc(N)cc1C(=O)Nc1cc(C(=O)Nc2ccc3cc(S(=O)(=O)O)cc(S(=O)(=O)O)c3c2)n(C)c1 | - | A17 | - | CEM + CEM-SS | 6.7 µM
Fc1cccc(F)c1[C@@H]1SCc2nc3ccccc3n21 | - | IIIB | RT-D138K | CEM | 11.44 µM
NC(N)=NS(=O)(=O)c1ccc(Nc2c3ccccc3nc3c(C(=O)NC(CO)(CO)CO)cccc23)cc1 | - | RF | - | CEM | >3.3 µM
Nc1nc(=O)n([C@@H]2CS[C@H](CO)O2)cc1F | - | LAI | - | MT-2 | 0.6 µM
O=C(NCc1c(F)cccc1Cl)C(OCc1ccccc1F)C(O)C(O)[C@@H](OCc1ccccc1F)C(=O)N[C@H]1c2ccccc2CC1O | - | - | - | MT-4 | 0.8 µM
Nc1cc(C(=O)O)ccc1SSc1ccc(C(=O)O)cc1N | - | RF | - | CEM + CEM-SS | 68.1 µM